Measurements: ChEMBL document CHEMBL3797100, “1,6-Bis[(benzyloxy)methyl]uracil derivatives-Novel antivirals with activity against HIV-1 and influenza H1N1 virus” (Bioorg Med Chem, 2016)

Experiments:
[1] = molecular target: Human immunodeficiency virus type 1 reverse transcriptase (Human immunodeficiency virus 1, UniProt Q72547, Y181C); assay: Inhibition of HIV1 reverse transcriptase p66/p51 Y181C mutant using poly(rA) template and measured after 40 mins by picogreen based spectrofluorometry
[2] = molecular target: Human immunodeficiency virus type 1 reverse transcriptase (Human immunodeficiency virus 1, UniProt Q72547, K103N/Y181C); assay: Inhibition of HIV1 3B reverse transcriptase p66/p51 K103N/Y181C mutant using poly(rA) template and measured after 40 mins by picogreen based spectrofluorometry
[3] = molecular target: Human immunodeficiency virus type 1 reverse transcriptase (Human immunodeficiency virus 1, UniProt Q72547, K103N); assay: Inhibition of HIV1 reverse transcriptase p66/p51 K103N mutant using poly(rA) template and measured after 40 mins by picogreen based spectrofluorometry
[4] = molecular target: Human immunodeficiency virus type 1 reverse transcriptase (Human immunodeficiency virus 1, UniProt Q72547, V106A); assay: Inhibition of HIV1 reverse transcriptase p66/p51 V106A mutant using poly(rA) template and measured after 40 mins by picogreen based spectrofluorometry

Structure (SMILES): Cc1cc(C#N)cc(C)c1Oc1nc(Nc2ccc(C#N)cc2)nc(N)c1Br [ETRAVIRINE]
- IC50 [1]: 30 nM
- IC50 [2]: 50 nM
- IC50 [3]: 10 nM
- IC50 [4]: 30 nM
